Anti-infective test results gathered from many reports (values: NIAID ChemDB through PubChem).

All rows: growth or infection tests; species: Rhinovirus

ECn is the concentration giving n% inhibition of infection, replication or growth. An empty or dashed field is not shown. Conditions beyond the fields shown may differ between rows.

compound	cell line	read-out	method	strain	value
CNC(=O)/C=C(\c1ccccc1)c1ccc2nc(N)c(-c3ccccc3)n2c1	H-HELA	EC50	plaque count	TYPE 14	0.27 µg/mL
O=C(/C=C(\O)c1ccccc1O)/C=C/c1ccc(Cl)cc1	HeLa	EC50	plaque count	Serotype 14	>12.5 µM
Clc1ccc(C2CCc3cc(Cl)cnc3O2)cc1	HeLa	EC50	cytopathic effect	TYPE 1A	0.07 µM
N=C(N)CNC(=O)C1CCC(N)=N1		MIC		Serotype 2	50 µg/mL
NS(=O)(=O)c1ncnc2c1ncn2[C@H]1C[C@H](O)[C@@H](CO)O1		EC50	cytopathic effect	TYPE 1A	>320 µM
CSc1ccc(CCCOc2cc(C)c(-c3noc(C(F)F)n3)c(C)c2)nn1	HeLa	EC50	cytopathic effect	serotypes 3 4 5 9 16 18 38 66 75 67	0.03 µg/mL
C#CCOc1cc(OC)ccc1-c1cc(N(CC)CC)no1	HeLa	EC50	cytopathic effect	Serotype 15 (group B)	2.5 µM
COc1ccc(OCCCCCCn2ccnc2)c(Cl)c1	HeLa	EC50	plaque count	TYPE 28	20.4 µM
CNC(=O)/C=C(\c1ccccc1)c1ccc2nc(N)c(-c3ccc(F)c(F)c3F)n2c1	H-HELA	EC50	plaque count	TYPE 14	0.17 µg/mL
CCCc1cc(CCCOc2c(C)cc(-c3noc(C)n3)cc2C)on1	HeLa	EC50	plaque count	serotype 2 1A 1B 6 14 21 22 15 25 30 50 67 89 86 41	0.018 µg/mL
Cc1cc(CCCCCOc2ccc(C3=NCCO3)cc2C)on1		MIC		TYPE 14	0.8 µM
Cc1nc(-c2cc(C)c(OCCCc3ccco3)c(C)c2)no1	HeLa	EC80	cytopathic effect	serotypes 2 14 1A 1B 6 21 22 15 25 30 50 67 89 86 41	0.83 µg/mL
N#Cc1cc([N+](=O)[O-])ccc1Oc1ccc(Cl)c(Cl)c1	HeLa	EC50	cytopathic effect	TYPE 1A	0.1 µg/mL
Cc1cc(-c2noc(C(F)(F)F)n2)cc(C)c1OCCCc1ccc(C(C)(F)F)nn1	HeLa	EC50	cytopathic effect	serotypes 3 4 5 9 16 18 38 66 75 67	0.02 µg/mL
CN(C)c1ncnc2c1ncn2Cc1ccc(NC(=O)C(Cc2ccccc2)NC(=O)OCc2ccccc2)cc1	M-HELA	EC50	plaque count	Serotype 1B	>50 µM
CN=C1CCC(C(=O)NCCC#N)N1		MIC		Serotype 2	>100 µg/mL
COc1ccc(-c2cc(N3CCCC3)no2)c(O)c1	HeLa	EC50	cytopathic effect	Serotype 51 (group B)	104 µM
CO/N=C/c1ccc(OCCCN2CCN(c3ccc(C)nn3)CC2)cc1	KB	EC50	cytopathic effect / visual reading	TYPE 1A	0.05 µg/mL
CNC(=O)C(c1cccc(F)c1)c1ccc2nc(N)n(S(=O)(=O)N3CCCC3)c2c1	HeLa	EC50	plaque count	1059 (serotype 14)	0.02 µg/mL
CCO/N=C/c1ccc(OCCC2CCN(c3nc(C(=O)OCC)cs3)CC2)cc1	MRC-5	EC50	cytopathic effect / visual reading	TYPE 14	0.124 µg/mL
Cc1cc(CCCCCCCOc2ccc(C3=NCCO3)cc2)on1		MIC		TYPE 2	3.8 µM
Nc1nc2c(ccn2[C@@H]2C[C@H](CO)[C@H](O)[C@@H]2O)c(=O)[nH]1		MIC		TYPE 1B	>100 µg/mL
Cc1cc(CCCCCOc2c(Cl)cc(C3=NCCO3)cc2Cl)on1	HeLa	EC50	plaque count	TYPE 5	>6.2 µg/mL
NS(=O)c1ncnc2c1ncn2[C@@H]1O[C@H](CO)[C@@H](O)[C@@H]1O		EC50	cytopathic effect	TYPE 1A	>320 µM
CNC(=O)C(c1ccc2nc(N)n(C3CCCC3)c2c1)c1ccccc1F	HeLa	EC50	plaque count	1059 (serotype 14)	0.03 µg/mL
CCCN=C1CCC(C(=O)NCCC(=N)N)N1		MIC		Serotype 2	>100 µg/mL
O=C(/C=C(\O)c1ccccc1O)/C=C/c1ccc([N+](=O)[O-])cc1	HeLa	EC50	plaque count	Serotype 1B	>6.25 µM
CCO/N=C/c1ccc(OCCCN2CCN(c3ccc(Cl)nn3)CC2)cc1	KB	EC50	cytopathic effect / visual reading	TYPE 1A	0.01 µg/mL
N#CCCCCNC(=O)C1CCC(=O)N1		MIC		Serotype 2	>100 µg/mL
CCOC(=O)c1ccc(OCCC2CCN(c3ccc(C)nn3)CC2)cc1	KB	EC50	neutral red	FO2-2547 (ICAM-1 receptor group 70)	0.197 µM
CCO/N=C/c1ccc(OCCC2CCN(c3ccc(Cl)nn3)CC2)c(OC)c1	KB	EC50	cytopathic effect / visual reading	TYPE 1A	<0.0032 µg/mL
CCN(CC)c1cc(-c2ccc(OC)cc2OC)on1	HeLa	EC50	cytopathic effect	Serotype 2	2.1 µM
CS(=O)(=O)c1ccc(Cc2ccc(Cl)c(Cl)c2)nc1	HeLa	EC50	cytopathic effect	TYPE 2	0.6 µg/mL
CCOc1ccc(-c2onc(N(CC)CC)c2Cc2c(N(CC)CC)noc2-c2ccc(O)cc2O)c(O)c1	HeLa	EC50	cytopathic effect	Serotype 14	>17 µM
CS(=O)c1ccc(Cc2ccc(S(C)(=O)=O)cn2)cc1	HeLa	EC50	cytopathic effect	TYPE 1A	>10 µg/mL
CCOC(=O)c1ccc(OCCC2CCN(c3ccc(C)nn3)CC2)cc1		EC90		Serotype 10	0.06 µM
Cc1cc(CCCOc2c(C)cc(-c3noc(C)n3)cc2C)on1	HeLa	EC80	plaque count	serotype 2 1A 1B 6 14 21 22 15 25 30 50 67 89 86 41	0.069 µg/mL
NCC(=O)Nc1ccc(Cn2cnc3c(N)ncnc32)cc1	M-HELA	EC50	plaque count	Serotype 1B	>50 µM
CCOc1cc(OC)ccc1-c1cc(N(CC)CC)no1	HeLa	EC50	cytopathic effect	Serotype 89 (group B)	10.3 µM
O=c1cc(/C=C/c2ccccc2)oc2ccccc12	HeLa	EC10	plaque count	Serotype 14	25 µM
Nc1ccn([C@@H]2C=C(CO)[C@@H](O)[C@H]2O)c(=O)n1	WI-38	EC50	cytopathic effect	TYPE 1A	10 µg/mL
CCCO/N=C/c1ccc(OCCCc2cc(C)no2)cc1	KB	EC50	cytopathic effect / visual reading	TYPE 1A	>1 µg/mL
Clc1ccc(C2CCc3ccccc3O2)c(Cl)c1	HeLa	EC50	plaque count	Serotype 1B	0.025 µM
CC1CC(=O)NC1C(=O)NCCC#N		MIC		Serotype 2	>100 µg/mL
CN(C)c1ncnc2c1ncn2Cc1ccc(NC(=O)C(N)Cc2ccccc2)cc1	M-HELA	EC50	plaque count	Serotype 1B	>50 µM
CCO/N=C/c1ccc(OCCC2CCN(c3ccc(-c4ccc([N+](C)=O)nn4)nn3)CC2)cc1	KB	EC50	cytopathic effect / visual reading	TYPE 1A	<0.0032 µg/mL
Cc1cc(CCCOc2c(C)cc(-c3noc(C(F)(F)F)n3)cc2C)on1		EC90		Serotype 14	0.16 µM
CS(=O)(=O)c1ccc(NCc2ccc(Cl)c(Cl)c2)nc1	HeLa	EC50	cytopathic effect	TYPE 68	>10 µg/mL
CCCS(=O)(=O)n1c(N)nc2ccc(C(C(=O)NC)c3cccc(F)c3)cc21	HeLa	EC50	plaque count	1059 (serotype 14)	0.04 µg/mL
NS(=O)c1ncnc2c1ncn2[C@H]1C[C@H](O)[C@@H](CO)O1		EC50	cytopathic effect	TYPE 1A	>320 µM
CNC(=O)/C=C(\c1ccccc1)c1ccc2nc(N)c(-c3cc(F)ccc3F)n2c1	H-HELA	EC50	cytopathic effect	TYPE 14	0.16 µg/mL
Clc1ccc(C2=CCc3cc(Br)cnc3O2)cc1Cl	HeLa	EC50	cytopathic effect	TYPE 9	>14 µM
CN(C)c1ncnc2c1ncn2Cc1ccccc1NC(=O)C(Cc1ccccc1)NC(=O)OCc1ccccc1	M-HELA	EC50	plaque count	Serotype 1B	>50 µM
CO/N=C/c1ccc(OC)c(OCCC2CCN(c3ccc(Cl)nn3)CC2)c1	MRC-5	EC50	cytopathic effect / visual reading	TYPE 2	>1 µg/mL
NCC(=O)Nc1cccc(Cn2cnc3c(N)ncnc32)c1	M-HELA	EC50	plaque count	Serotype 1B	>50 µM
Cc1cc(CCCOc2c(C)cc(-c3nnc(C)o3)cc2C)on1	HeLa	EC80	plaque count	serotype 2 1A 1B 6 14 21 22 15 25 30 50 67 89 86 41	0.12 µg/mL
CNC(=O)C(c1ccccc1)c1ccc2nc(N)n(S(=O)(=O)C(C)C)c2c1	HeLa	EC50	plaque count	1059 (serotype 14)	0.07 µg/mL
N#CCNC(=O)C1CCC(=O)N1		MIC		Serotype 2	>100 µg/mL

Again, the opening 3 rows:

compound	cell line	read-out	method	strain	value
CNC(=O)/C=C(\c1ccccc1)c1ccc2nc(N)c(-c3ccccc3)n2c1	H-HELA	EC50	plaque count	TYPE 14	0.27 µg/mL
O=C(/C=C(\O)c1ccccc1O)/C=C/c1ccc(Cl)cc1	HeLa	EC50	plaque count	Serotype 14	>12.5 µM
Clc1ccc(C2CCc3cc(Cl)cnc3O2)cc1	HeLa	EC50	cytopathic effect	TYPE 1A	0.07 µM